Data taken from US9920088B2, “Triterpene derivative and its anti-influenza use” (Peking University, priority 2012, dated 2018).

Test system: MDCK cells
Test: Cytotoxicity (CellTiter-Glo), MDCK cells

**Q.** How did the “cytotoxicity” value (50 μM) turn out when “echinocystic acid [EA, reference compound]” was run?
**A.** obvious cytotoxicity

**Q.** What about the “Cell viability(%)” value (Table 5, 50 μM, 48 h, DMSO = 100) of the same substance?
**A.** 73.5%
